Results of unrelated studies side by side (data: NIAID ChemDB).

All rows: tests in culture; species: Candida tropicalis; endpoint: MIC90

Blank or dashed fields: not listed here. A number after MIC or MFC names an inhibition level or a share of isolates. Rows are shuffled and stem from different studies.

{"smiles": "CN[C@H]1CC[C@@H](c2ccc(Cl)c(Cl)c2)c2ccccc21", "strain or isolate": "MMRL2017", "read by": "broth dilution", "value": "24 µg/mL"}
{"smiles": "COc1cc(O)c2c(c1)C(=O)c1c(cc3c(c1O)-c1c(cc(C)c(C(=O)NC(CO)C(=O)O)c1O)[C@H](OC1OC(C)C(O)C(OC4OCC(O)C(O)C4O)C1O)C3O)C2=O", "strain or isolate": "11 isolates", "value": "8 µg/mL"}
{"smiles": "Clc1ccc(C(c2ccccc2)n2cncn2)cc1", "read by": "agar", "value": "32 µg/mL"}
{"smiles": "CC[C@@H]([C@H](C)O)n1ncn(-c2ccc(N3CCN(c4ccc(OC[C@@H]5CO[C@@](Cn6cncn6)(c6ccc(F)cc6F)C5)cc4)CC3)cc2)c1=O", "strain or isolate": "15 strains", "value": "0.125 µg/mL"}
{"smiles": "O=C(c1ccccc1)C(c1ccccc1)n1ccnc1", "read by": "agar", "value": ">256 µg/mL"}
{"smiles": "C[C@@H](c1ncncc1F)[C@](O)(Cn1cncn1)c1ccc(F)cc1F", "read by": "broth dilution", "value": "2 µg/mL"}
{"smiles": "Clc1ccc(C(c2ccccc2)n2nnc3ccccc32)cc1", "read by": "agar", "value": ">256 µg/mL"}
{"smiles": "C[C@@H](c1ncncc1F)[C@](O)(Cn1cncn1)c1ccc(F)cc1F", "strain or isolate": "38 isolates", "value": "0.25 µg/mL"}
{"smiles": "Nc1[nH]c(=O)ncc1F", "strain or isolate": "10 isolates", "value": "0.08 µg/mL"}
{"smiles": "Clc1ccc(C(Cn2ccnc2)OCc2csc3c(Cl)cccc23)c(Cl)c1", "strain or isolate": "65 isolates", "read by": "absorbance", "conditions": "24 h", "value": "4 µg/mL"}
{"smiles": "Nc1ncccc1-c1cc(Cc2ccc(COc3ccccn3)cc2)no1", "read by": "broth dilution", "value": "0.06 µg/mL"}
{"smiles": "O=C(c1ccccc1)C(c1ccccc1)n1cncn1", "read by": "agar", "value": "64 µg/mL"}
{"smiles": "C/C(C=NCCN=C/C(C)=C\\c1ccccc1)=C/c1ccccc1", "strain or isolate": "ATCC 750", "read by": "agar diffusion", "value": "160 µM"}
{"smiles": "CCC(C)CC(C)CCCCCCCCC(=O)N[C@H]1C[C@@H](O)[C@H](NCCN)NC(=O)[C@@H]2[C@@H](O)CCN2C(=O)[C@H]([C@H](O)CCN)NC(=O)[C@H]([C@H](O)[C@@H](O)c2ccc(O)cc2)NC(=O)[C@@H]2C[C@@H](O)CN2C(=O)[C@H]([C@@H](C)O)NC1=O", "strain or isolate": "20 isolates", "value": "1 µg/mL"}
{"smiles": "Nc1ncccc1-c1cc(Cc2ccc(COc3ccccn3)cc2)no1", "read by": "broth dilution", "value": "0.03 µg/mL"}
{"smiles": "Clc1ccc(C(c2ccccc2)n2cnc3ccccc32)cc1", "read by": "agar", "value": "16 µg/mL"}
{"smiles": "C=CCc1ccc(O)c(OC)c1", "strain or isolate": "3056", "read by": "turbidity", "value": "485 µg/mL"}
{"smiles": "CCC(C)n1ncn(-c2ccc(N3CCN(c4ccc(OC[C@H]5CO[C@](Cn6cncn6)(c6ccc(Cl)cc6Cl)O5)cc4)CC3)cc2)c1=O", "read by": "broth dilution", "value": ">4 µg/mL"}

A second listing of 3 rows from above:

smiles | strain or isolate | read by | conditions | value
O=C(c1ccccc1)C(c1ccccc1)n1ccnc1 |  | agar |  | >256 µg/mL
Nc1ncccc1-c1cc(Cc2ccc(COc3ccccn3)cc2)no1 |  | broth dilution |  | 0.06 µg/mL
CCC(C)CC(C)CCCCCCCCC(=O)N[C@H]1C[C@@H](O)[C@H](NCCN)NC(=O)[C@@H]2[C@@H](O)CCN2C(=O)[C@H]([C@H](O)CCN)NC(=O)[C@H]([C@H](O)[C@@H](O)c2ccc(O)cc2)NC(=O)[C@@H]2C[C@@H](O)CN2C(=O)[C@H]([C@@H](C)O)NC1=O | 20 isolates |  |  | 1 µg/mL